Potato spindle tuber viroid, loop 6: variant abundance in plants

The pool varies loop 6 of the PSTVd intermediate strain in the pattern UNNNCGNNNG; wild type is UGACCGCGAG (upper and lower strand joined, each 5' to 3', the first 5 letters being the upper strand, closing pairs included).

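A pool of all variants was put on leaves of three Nicotiana benthamiana plants. Progeny were sequenced from the inoculated region (day 5), the margin of the inoculated leaf (day 10) and systemic leaves (day 12).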

Numbers give reads per thousand; 0 = not seen among the reads, higher = more abundant.
Each value is the mean of three plants.
"Pool" is the share in the plasmid pool used as inoculum, on the same scale.
The inoculated region was read from the minus strand, the other sites from the plus strand.
For reference, wild type rose from 20.7 per thousand in the pool to 195, 198, 203 (inoculated region), 629, 591, 734 (leaf margin) and 942, 870, 868 (systemic leaves).

sequence	pool	inoculated region	leaf margin	systemic leaves
UACUCGGGUG	0.222	0.0957	0.0169	0
UGGCCGAUGG	0.366	0.179	0.00920	0
UAGACGAGUG	0.196	0.106	0.00920	0
UUUGCGCAAG	0.131	0.205	0.0232	0
UGUGCGCUCG	0.222	0.0944	0	0
UUGACGGCAG	0.183	0.0773	0	0
UGUGCGGAGA	0.0131	0.00599	0	0
UCUUCGCUCG	0.183	0.101	0.00773	0
UUAUCGCCUG	0.301	0.0415	0.00841	0
UGGCCGUAUA	0.0131	0	0.00920	0
UAGACGGAAG	0.170	0.119	0	0
UGUACGACUG	0.235	0.120	0	0
UCACCGGAGA	0.0131	0	0	0
UUAGCGUGUG	0.261	0.138	0	0
UAGGCGCUUG	0.458	0.0774	0.0339	0.00684
UACGCGCAUG	0.118	0.0781	0	0
UAUUCGUUAG	0.575	0.155	0	0
UGUCCGCCGG	0.222	0.101	0.0169	0.00684
UUUCCGGUGG	0.235	0.126	0.0324	0
UCCCCGUCCG	0.301	0.108	0	0
UGCGCGGCGG	0.144	0.107	0.00773	0
UAGCCGCAAG	0.157	0.673	0.175	0
UUGACGGUCG	0.222	0.107	0.00773	0
UCUACGGGCG	0.288	0.684	0.135	0
UGUUCGUCCG	0.314	0.0538	0.00920	0
UGGACGUGUG	0.431	0.0958	0.00920	0
UGUCCGCUUG	0.261	0.107	0.0169	0
UAUACGGGCG	0.288	0.588	0.0759	0.0407
UUCGCGAGAG	0.144	0.0768	0.0667	0
UGGCCGCCCG	0.235	0.150	0.0169	0
UUACCGAAUG	0.288	0.119	0.0169	0
UUAGCAGCGG	0.0131	0	0	0
UAAUCGCUCG	0.288	0.0531	0.00920	0
UGCCCGUCUG	0.183	0.0832	0	0
UUAUCGGUAG	0.275	0.619	0.0592	0
UGGGCGACCG	0.118	0.0353	0	0
UGGUCGCAGG	0.235	0.0885	0	0
UCCGCGAAAG	0.209	0.119	0.00920	0
UAGCCGAACG	0.248	0.0766	0.0268	0
UGGUCGACCG	0.222	0.0656	0.00920	0
UAGCCGACGG	0.261	0.101	0.0247	0.00599
UAGGCGUGCG	0.183	0.0656	0	0
UUUGCGGUCG	0.196	0.131	0	0
UACGCGGAAG	0.0915	0.108	0.0247	0
UACGCGGGAG	0.222	0.0593	0	0
UCUGCGAAAG	0.288	0.0770	0.00773	0
UAAGCGACUG	0.471	0.0768	0	0
UUUUCGACCG	0.144	0.0959	0	0
UGCACGCUCG	0.458	0.144	0	0
UCGUCGUGAG	0.235	0.119	0	0
UGGACGGCGG	0.222	0.0891	0.00773	0
UUACCGUUAG	0.327	0.206	0.0339	0
UGUUCGAUGG	0.418	0.0717	0.00773	0
UCCCCGGAGG	0.209	0.108	0	0
UUCUGGCUAG	0.0131	0	0	0
UCGCCGAACG	0.209	0.0715	0	0
UGACCGUCCG	0.261	0.203	0.199	0.0402
UCCGCGCCUG	0.183	0.0594	0.00773	0
UUUUCGGAGG	0.105	0.0835	0	0
UCUACGAUAG	0.222	0.0954	0.0556	0
UCCACGAUUG	0.314	0.107	0	0
UCAGCGUGCG	0.144	0.126	0	0

6 of these entries, quoted again:

sequence,pool,inoculated region,leaf margin,systemic leaves
UGUUCGAUGG,0.418,0.0717,0.00773,0
UAUUCGUUAG,0.575,0.155,0,0
UGGUCGACCG,0.222,0.0656,0.00920,0
UAAGCGACUG,0.471,0.0768,0,0
UGGACGGCGG,0.222,0.0891,0.00773,0
UGUACGACUG,0.235,0.120,0,0

The authors trace changes outside the varied positions to PCR and sequencing errors or to mutation in the plant; presence does not show that a variant is infectious alone.
Samples held 36,220 to 57,551 reads, so the smallest values rest on one or two reads.

The measurements come from Wu et al. 2024 (doi:10.1371/journal.ppat.1012142).